Results on 9 molecules are retold here after publication PMC9104152, “Phosphoproteomics Unravel HBV Triggered Rewiring of Host Phosphosignaling Events” (International Journal of Molecular Sciences, 2022).

In this data set the test system is HepG2-NTCP cells. As to the kind of experiment: TMT-based phosphoproteome profiling of HBV-infected vs mock HepG2-NTCP (HBV/mock ratio). Also on record: species or system human. Conditions: sheet Up-regulated, HBV-infected vs mock HepG2-NTCP.
Where [1] appears, read: phosphosites of host proteins deregulated at 7dpi.
[2] abbreviates: phosphosite abundance ratio of host protein, 7dpi.

B1: Q8TAQ9 1xPhospho [S] (protein, UniProt Q8TAQ9 1-357, looked up)
SUN domain-containing protein …: MSGKTKARRAAMFFRRCSEDASGSASGNALLSEDENPDANGVTRSWKIILSTMLTLTFLLVGLLNHQWLKETDVPQKSRQLYAIIAEYGSRLYKYQARLRMPKEQLELLKKESQNLENNFRQILFLIEQIDVLKALLRDMKDGMDNNHNWNTHGDPVEDPDHTEEVSNLVNYVLKKLREDQVEMADYALKSAGASIIEAGTSESYKNNKAKLYWHGIGFLNHEMPPDIILQPDVYPGKCWAFPGSQGHTLIKLATKIIPTAVTMEHISEKVSPSGNISSAPKEFSVYGITKKCEGEEIFLGQFIYNKTGTTVQTFELQHAVSEYLLCVKLNIFSNWGHPKYTCLYRFRVHGTPGKHI
modifications: phosphorylated
Take B1: the HBV/mock under setting [1] is 1.413.

B2: Q9BXP5 1xPhospho [T544(100)] (protein, UniProt Q9BXP5 2-876, looked up)
Serrate RNA effector molecule …: GDSDDEYDRRRRDKFRRERSDYDRSRERDERRRGDDWNDREWDRGRERRSRGEYRDYDRNRRERFSPPRHELSPPQKRMRRDWDEHSSDPYHSGYEMPYAGGGGGPTYGPPQPWGHPDVHIMQHHVLPIQARLGSIAEIDLGVPPPVMKTFKEFLLSLDDSVDETEAVKRYNDYKLDFRRQQMQDFFLAHKDEEWFRSKYHPDEVGKRRQEARGALQNRLRVFLSLMETGWFDNLLLDIDKADAIVKMLDAAVIKMEGGTENDLRILEQEEEEEQAGKPGEPSKKEEGRAGAGLGDGERKTNDKDEKKEDGKQAENDSSNDDKTKKSEGDGDKEEKKEDSEKEAKKSSKKRNRKHSGDDSFDEGSVSESESESESGQAEEEKEEAEEALKEKEKPKEEEWEKPKDAAGLECKPRPLHKTCSLFMRNIAPNISRAEIISLCKRYPGFMRVALSEPQPERRFFRRGWVTFDRSVNIKEICWNLQNIRLRECELSPGVNRDLTRRVRNINGITQHKQIVRNDIKLAAKLIHTLDDRTQLWASEPGTPPLPTSLPSQNPILKNITDYLIEEVSAEEEELLGSSGGAPPEEPPKEGNPAEINVERDEKLIKVLDKLLLYLRIVHSLDYYNTCEYPNEDEMPNRCGIIHVRGPMPPNRISHGEVLEWQKTFEEKLTPLLSVRESLSEEEAQKMGRKDPEQEVEKFVTSNTQELGKDKWLCPLSGKKFKGPEFVRKHIFNKHAEKIEEVKKEVAFFNNFLTDAKRPALPEIKPAQPPGPAQILPPGLTPGLPYPHQTPQGLMPYGQPRPPILGYGAGAVRPAVPTGGPPYPHAPYGAGRGNYDAFRGQGGYPGKPRNRMVRGDPRAIVEYRDLDAPDDVDFF
modifications: phospho T544
Regarding B2, under setting [1], the HBV/mock worked out at 1.433.

B3: Q9H7L9 3xPhospho [S45(100); T49(100); S53(99.5)] (protein, UniProt Q9H7L9 2-328, looked up)
Sin3 histone deacetylase …: SAAGLLAPAPAQAGAPPAPEYYPEEDEELESAEDDERSCRGRESDEDTEDASETDLAKHDEEDYVEMKEQMYQDKLASLKRQLQQLQEGTLQEYQKRMKKLDQQYKERIRNAELFLQLETEQVERNYIKEKKAAVKEFEDKKVELKENLIAELEEKKKMIENEKLTMELTGDSMEVKPIMTRKLRRRPNDPVPIPDKRRKPAPAQLNYLLTDEQIMEDLRTLNKLKSPKRPASPSSPEHLPATPAESPAQRFEARIEDGKLYYDKRWYHKSQAIYLESKDNQKLSCVISSVGANEIWVRKTSDSTKMRIYLGQLQRGLFVIRRRSAA
modifications: phospho S45, T49, S53
Consider B3, for which the HBV/mock under setting [1] is 1.425.

B4: O75764 1xPhospho [S115(100)] (protein, UniProt O75764 1-348, looked up)
Transcription elongation …: MGQEEELLRIAKKLEKMVARKNTEGALDLLKKLHSCQMSIQLLQTTRIGVAVNGVRKHCSDKEVVSLAKVLIKNWKRLLDSPGPPKGEKGEEREKAKKKEKGLECSDWKPEAGLSPPRKKREDPKTRRDSVDSKSSASSSPKRPSVERSNSSKSKAESPKTPSSPLTPTFASSMCLLAPCYLTGDSVRDKCVEMLSAALKADDDYKDYGVNCDKMASEIEDHIYQELKSTDMKYRNRVRSRISNLKDPRNPGLRRNVLSGAISAGLIAKMTAEEMASDELRELRNAMTQEAIREHQMAKTGGTTTDLFQCSKCKKKNCTYNQVQTRSADEPMTTFVLCNECGNRWKFC
modifications: phospho S115
For B4, the HBV/mock under setting [1] was 4.372.

B5: Q9UMZ2 1xPhospho [S1075(100)] (protein, UniProt Q9UMZ2 1-1314, looked up)
Synergin gamma: MALRPGAGSGGGGAAGAGAGSAGGGGFMFPVAGGIRPPQAGLMPMQQQGFPMVSVMQPNMQGIMGMNYSSQMSQGPIAMQAGIPMGPMPAAGMPYLGQAPFLGMRPPGPQYTPDMQKQFAEEQQKRFEQQQKLLEEERKRRQFEEQKQKLRLLSSVKPKTGEKSRDDALEAIKGNLDGFSRDAKMHPTPASHPKKPGPSLEEKFLVSCDISTSGQEQIKLNTSEVGHKALGPGSSKKYPSLMASNGVAVDGCVSGTTTAEAENTSDQNLSIEESGVGVFPSQDPAQPRMPPWIYNESLVPDAYKKILETTMTPTGIDTAKLYPILMSSGLPRETLGQIWALANRTTPGKLTKEELYTVLAMIAVTQRGVPAMSPDALNQFPAAPIPTLSGFSMTLPTPVSQPTVIPSGPAGSMPLSLGQPVMGINLVGPVGGAAAQASSGFIPTYPANQVVKPEEDDFQDFQDASKSGSLDDSFSDFQELPASSKTSNSQHGNSAPSLLMPLPGTKALPSMDKYAVFKGIAADKSSENTVPPGDPGDKYSAFRELEQTAENKPLGESFAEFRSAGTDDGFTDFKTADSVSPLEPPTKDKTFPPSFPSGTIQQKQQTQVKNPLNLADLDMFSSVNCSSEKPLSFSAVFSTSKSVSTPQSTGSAATMTALAATKTSSLADDFGEFSLFGEYSGLAPVGEQDDFADFMAFSNSSISSEQKPDDKYDALKEEASPVPLTSNVGSTVKGGQNSTAASTKYDVFRQLSLEGSGLGVEDLKDNTPSGKSDDDFADFHSSKFSSINSDKSLGEKAVAFRHTKEDSASVKSLDLPSIGGSSVGKEDSEDALSVQFDMKLADVGGDLKHVMSDSSLDLPTVSGQHPPAADIEDLKYAAFGSYSSNFAVSTLTSYDWSDRDDATQGRKLSPFVLSAGSGSPSATSILQKKETSFGSSENITMTSLSKVTTFVSEDALPETTFPALASFKDTIPQTSEQKEYENRDYKDFTKQDLPTAERSQEATCPSPASSGASQETPNECSDDFGEFQSEKPKISKFDFLVATSQSKMKSSEEMIKSELATFDLSVQGSHKRSLSLGDKEISRSSPSPALEQPFRDRSNTLNEKPALPVIRDKYKDLTGEVEENERYAYEWQRCLGSALNVIKKANDTLNGISSSSVCTEVIQSAQGMEYLLGVVEVYRVTKRVELGIKATAVCSEKLQQLLKDIDKVWNNLIGFMSLATLTPDENSLDFSSCMLRPGIKNAQELACGVCLLNVDSRSRKEEKPAEEHPKKAFNSETDSFKLAYGGHQYHASCANFWINCVEPKPPGLVLPDLL
modifications: phosphorylated S1075
Take B5: the HBV/mock under setting [1] came out at 1.572.

B6: Q9NXG2 2xPhospho [S86(100); S88(100)] (protein, UniProt Q9NXG2 2-353, looked up)
THUMP domain-containing …: AAPAQQTTQPGGGKRKGKAQYVLAKRARRCDAGGPRQLEPGLQGILITCNMNERKCVEEAYSLLNEYGDDMYGPEKFTDKDQQPSGSEGEDDDAEAALKKEVGDIKASTEMRLRRFQSVESGANNVVFIRTLGIEPEKLVHHILQDMYKTKKKKTRVILRMLPISGTCKAFLEDMKKYAETFLEPWFKAPNKGTFQIVYKSRNNSHVNREEVIRELAGIVCTLNSENKVDLTNPQYTVVVEIIKAVCCLSVVKDYMLFRKYNLQEVVKSPKDPSQLNSKQGNGKEAKLESADKSDQNNTAEGKNNQQVPENTEELGQTKPTSNPQVVNEGGAKPELASQATEGSKSNENDFS
modifications: phospho S86, S88
As for B6, under setting [1], the HBV/mock came to 1.35.

B7: Q7KZF4 1xPhospho [S426(99.3)] (protein, UniProt Q7KZF4 2-910, looked up)
Staphylococcal nuclease …: ASSAQSGGSSGGPAVPTVQRGIIKMVLSGCAIIVRGQPRGGPPPERQINLSNIRAGNLARRAAATQPDAKDTPDEPWAFPAREFLRKKLIGKEVCFTIENKTPQGREYGMIYLGKDTNGENIAESLVAEGLATRREGMRANNPEQNRLSECEEQAKAAKKGMWSEGNGSHTIRDLKYTIENPRHFVDSHHQKPVNAIIEHVRDGSVVRALLLPDYYLVTVMLSGIKCPTFRREADGSETPEPFAAEAKFFTESRLLQRDVQIILESCHNQNILGTILHPNGNITELLLKEGFARCVDWSIAVYTRGAEKLRAAERFAKERRLRIWRDYVAPTANLDQKDKQFVAKVMQVLNADAIVVKLNSGDYKTIHLSSIRPPRLEGENTQDKNKKLRPLYDIPYMFEAREFLRKKLIGKKVNVTVDYIRPASPATETVPAFSERTCATVTIGGINIAEALVSKGLATVIRYRQDDDQRSSHYDELLAAEARAIKNGKGLHSKKEVPIHRVADISGDTQKAKQFLPFLQRAGRSEAVVEYVFSGSRLKLYLPKETCLITFLLAGIECPRGARNLPGLVQEGEPFSEEATLFTKELVLQREVEVEVESMDKAGNFIGWLHIDGANLSVLLVEHALSKVHFTAERSSYYKSLLSAEEAAKQKKEKVWAHYEEQPVEEVMPVLEEKERSASYKPVFVTEITDDLHFYVQDVETGTQLEKLMENMRNDIASHPPVEGSYAPRRGEFCIAKFVDGEWYRARVEKVESPAKIHVFYIDYGNREVLPSTRLGTLSPAFSTRVLPAQATEYAFAFIQVPQDDDARTDAVDSVVRDIQNTQCLLNVEHLSAGCPHVTLQFADSKGDVGLGLVKEGLVMVEVRKEKQFQKVITEYLNAQESAKSARLNLWRYGDFRADDADEFGYSR
modifications: phosphorylated S426
On to B7, for which the HBV/mock under setting [2] is 1.681.

B8: Q01130 (protein, UniProt Q01130 1-221, looked up)
chain: MSYGRPPPDVEGMTSLKVDNLTYRTSPDTLRRVFEKYGRVGDVYIPRDRYTKESRGFAFVRFHDKRDAEDAMDAMDGAVLDGRELRVQMARYGRPPDSHHSRRGPPPRRYGGGGYGRRSRSPRRRRRSRSRSRSRSRSRSRSRYSRSKSRSRTRSRSRSTSKSRSARRSKSKSSSVSRSRSRSRSRSRSRSPPPVSKRESKSRSRSKSPPKSPEEEGAVSS
modifications: full-length
As to B8, the HBV/mock under setting [1] turned out to be 1.3401.

B9: Q9NRS6 1xPhospho [S/T] (protein, UniProt Q9NRS6 1-342, looked up)
Sorting nexin-15: MSRQAKDDFLRHYTVSDPRTHPKGYTEYKVTAQFISKKDPEDVKEVVVWKRYSDFRKLHGDLAYTHRNLFRRLEEFPAFPRAQVFGRFEASVIEERRKGAEDLLRFTVHIPALNNSPQLKEFFRGGEVTRPLEVSRDLHILPPPLIPTPPPDDPRLSQLLPAERRGLEELEVPVDPPPSSPAQEALDLLFNCESTEEASGSPARGPLTEAELALFDPFSKEEGAAPSPTHVAELATMEVESARLDQEPWEPGGQEEEEDGEGGPTPAYLSQATELITQALRDEKAGAYAAALQGYRDGVHVLLQGVPSDPLPARQEGVKKKAAEYLKRAEEILRLHLSQLPP
modifications: monophosphorylated
Regarding B9, under setting [2], the HBV/mock amounted to 1.554.
